In BindingDB's records for doi:10.1021/acsmedchemlett.8b00054 (Shandong University, 2018) one finds EC50 data, which are given here for one compound.

The assay in a line: Inhibition of HIV1 reverse transcriptase K103N mutant infected in human MT4 cells assessed as protection against virus-induced cytotoxicity by MTT assay. (Tetrazolium dyes change colour on reduction, which living cells bring about.)

Each structure is given as a SMILES string.

By EC50 is commonly meant the midpoint of the concentration-response curve. Turning to `Cc1cc(C#N)cc(C)c1Oc1nc(Nc2ccc(C#N)cc2)nc(N)c1Br`, the EC50 is 5.4 nM.
